Reference: patent publication US8501450B2, “Hepatitis C virus variants” (priority 2005, dated 2013)

Key:
[1] = target: T1, mutant HCV protease R155T (Hepatitis C virus genotype 1a, UniProt P27958, A1027M/R1181T); format: biochemical; conditions: apparently fold change vs wild-type
T1 construct: A DNA fragment encoding Met^1-Ser^181 of the HCV NS3 protease was amplified; made in house; host or cells: E. coli BL21 (DE3)

[2] = target: HCV NS3 protease V36L mutant (Hepatitis C virus genotype 1a, UniProt P27958, A1027M/V1062L); assay: biochemical
[3] = target: HCV NS3 protease R155T mutant (Hepatitis C virus genotype 1a, UniProt P27958, R1181T); assay: biochemical; conditions: each line a patient-specific clone
[4] = target: HCV NS3 protease R155K mutant (Hepatitis C virus genotype 1a, UniProt P27958, R1181K); assay: Enzymatic IC50 assay, HCV NS3 serine protease domain; conditions: each line a patient-specific clone

SMILES: COc1ccc2c(O[C@@H]3C[C@H]4C(=O)N[C@]5(C(=O)O)C[C@H]5/C=C\CCCCC[C@H](NC(=O)OC5CCCC5)C(=O)N4C3)cc(-c3csc(NC(C)C)n3)nc2c1 [BILN 2061]
- Resistance, Enzyme Assay [1]: 72
- IC50 [2]: 2.1 nM
- IC50 [3]: 696 nM and 799 nM
- IC50 [4]: 632 nM and > 840 nM

“And” between values parts separate entries of the source, which are not always exact repeats. Equal entries are not always repeated.
